# Source: PubChem BioAssay AID602230 (The Scripps Research Institute Molecular Screening Center, 2012)
# Amino acid sequences for entries named in this document (tags omitted).
# UniProt P0A9M0, whole entry, looked up: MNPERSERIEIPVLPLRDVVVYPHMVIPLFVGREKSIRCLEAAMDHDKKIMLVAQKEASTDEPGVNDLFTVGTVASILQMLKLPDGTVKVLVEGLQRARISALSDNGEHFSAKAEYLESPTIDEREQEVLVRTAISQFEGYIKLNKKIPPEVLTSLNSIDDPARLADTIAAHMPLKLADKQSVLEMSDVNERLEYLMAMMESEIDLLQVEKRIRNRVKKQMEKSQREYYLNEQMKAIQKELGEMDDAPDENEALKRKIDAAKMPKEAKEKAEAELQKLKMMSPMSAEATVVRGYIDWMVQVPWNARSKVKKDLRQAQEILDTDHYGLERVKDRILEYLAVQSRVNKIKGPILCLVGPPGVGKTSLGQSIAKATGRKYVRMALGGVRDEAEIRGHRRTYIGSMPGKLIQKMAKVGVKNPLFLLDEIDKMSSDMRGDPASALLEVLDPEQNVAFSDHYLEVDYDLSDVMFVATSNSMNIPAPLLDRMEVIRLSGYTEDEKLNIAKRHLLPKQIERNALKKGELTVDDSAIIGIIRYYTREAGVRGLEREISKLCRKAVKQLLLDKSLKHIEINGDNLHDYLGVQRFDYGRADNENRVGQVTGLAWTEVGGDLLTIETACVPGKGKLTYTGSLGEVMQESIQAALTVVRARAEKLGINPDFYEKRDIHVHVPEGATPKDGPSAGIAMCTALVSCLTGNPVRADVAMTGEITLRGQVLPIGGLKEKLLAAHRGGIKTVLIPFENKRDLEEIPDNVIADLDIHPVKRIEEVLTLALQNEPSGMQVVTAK
# The list shows a part of the results, in another mix than the full data. The source made the active and inactive calls. Rule as the data show it: active = inhibition above about 16%; inactive = the rest.
# Target: Lon protease (Escherichia coli (strain K12)) (UniProt P0A9M0)
# Experiment: E. coli Lon protease inhibitor retest, confirmation, biochemical, fluorescence polarization (AID 602230);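 also: 0% = enzyme with probe and DMSO and 100% = no enzyme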
# Settings: purified E. coli Lon, at 7.94 µM, stronger effect = higher value
row,Compound,inhibition
1,Nc1cccc2c([As](=O)(O)O)cccc12,active: 142%
